Measurements as given in patent publication US12708649B2, “Compositions and methods for improving skin health and for the treatment and prevention of diseases, disorders and conditions associated with fungi and other pathogenic microbes” (priority 2020, dated 2026).
Like-named read-outs stand apart in the source and are kept apart here. Where a SMILES comes first, the peptide text is derived from it.

Test system: Alcaligenes faecalis DB05646 / Malassezia furfur cultures
Test: Metabolite profile by LC-MS: DB05646 single culture and co-culture with M. furfur
[1] = DB05646 single culture, Media 22, 48 hours

Row | SMILES | Fold of change Coculture vs DB05646 [fold] | Fold of change Coculture vs M.furfur | Fold of change Coculture vs Media [fold] | Fold of change DB05646 vs Media [fold] | Fold of change M.furfur vs Media [fold] | Fold of change Coculture vs DB05646 (DB05646-M. furfur co-culture) [fold] | Fold of change Coculture vs M.furfur (DB05646-M. furfur co-culture) | Fold of change Coculture vs Media (DB05646-M. furfur co-culture) [fold] | Fold of change DB05646 vs Media [1] [fold] | Fold of change M.furfur vs Media (M. furfur single culture) [fold]
1 | C=CCC1(C(C)C)C(=O)NC(=O)NC1=O [Aprobarbital] | 0.3 | 11.7 fold | 11.2 | 39.0 | 1.0 | – | – | – | – | –
2 | N=C(N)NCCCC(=O)C(=O)O [5-guanidino-2-oxopentanoic acid] | – | – | – | – | – | 0.5 | 13.0 fold | 1424.5 | 3090.7 | 109.8
3 | NCC(=O)N[C@@H](Cc1ccccc1)C(=O)O [Gly-Phe] (H-Gly-Phe-OH) | – | – | – | – | – | 0.3 | 79.2 fold | 91.8 | 305.2 | 1.2
4 | N#CCC(=O)NCC1CCCO1 (centres unmarked) [N1-tetrahydrofuran-2-ylmethyl-2-cyanoacetamide] | – | – | – | – | – | 0.4 | 4.3 fold | 3.3 | 7.8 | 0.8
5 | OC[C@H]1O[C@@H](n2cnc3c(O)ncnc32)[C@H](O)[C@@H]1O [Inosine] | – | – | – | – | – | 0.0 | 0.0 fold | 0.1 | 303.5 | 124.0
6 | O=C(O)C1=NCCCC1 [D-1-Piperideine-2-carboxylic acid] | – | – | – | – | – | 0.6 | 4.3 fold | 1865.8 | 2874.9 | 434.3
7 | O=C(O)CC(=O)O [malonic acid] | – | – | – | – | – | – | significantly lower | – | – | –
8 | NCCc1c[nH]cn1 [Histamine] | – | – | – | – | – | 0.9 | 2.2 fold | 193.9 | 227.9 | 87.4
9 | CCOC(=O)CC(=O)OCC [Diethyl malonate] | – | – | – | – | – | 0.9 | 2.1 fold | 903.6 | 1040.6 | 439.0
10 | CCC(O)C(O)C/C=C\C/C=C\CCCCCCCC(=O)O (centres unmarked) [15,16-DiHODE] | 1.2 | 18.8 fold | 0.1 | 0.1 | 0.0 | – | – | – | – | –
11 | N=C(N)NCCCC(=O)O [4-Guanidinobutyric acid] | – | – | – | – | – | 0.7 | 8.3 fold | 10.6 | 15.8 | 1.3
12 | CCOC(=O)CC(C)=O [Ethyl acetoacetate] | – | – | – | – | – | 0.8 | 12.5 fold | 125.1 | 164.8 | 10.0
13 | O=C(O)C1CCCCN1 (centres unmarked) [Pipecolinic acid] | – | – | – | – | – | 1.0 | 101.2 fold | 228.5 | 230.6 | 2.3
14 | CN(C)CC#N [(Dimethylamino)acetonitrile] | 0.9 | 1.4 fold | 63.6 | 72.8 | 44.6 | – | – | – | – | –
15 | CC(C)=CC(=O)NCC(=O)O [3-Methylcrotonylglycine] | – | – | – | – | – | 2.7 | 1.3 fold | 21.0 | 7.8 | 16.1
16 | CC(=O)NCCCNCCCC(=O)O [4-[(3-Acetamidopropyl)amino]butanoic acid] | – | – | – | – | – | 3.2 | 6.6 fold | 2.7 | 0.8 | 0.4
17 | Cc1c[nH]c(=O)nc1N [5-Methylcytosine] | – | – | – | – | – | 1.1 | 3.6 fold | 7.5 | 6.8 | 2.1
18 | CC(C)C[C@H](NC(=O)CC[C@H](N)C(=O)O)C(=O)O [L-gamma-Glutamyl-L-leucine] | 4.6 | 4.0 fold | 15.3 | 3.3 | 3.8 | – | – | – | – | –

Row | SMILES | Fold of change Coculture vs DB05646 [fold] | Fold of change Coculture vs M.furfur | Fold of change Coculture vs Media [fold] | Fold of change DB05646 vs Media [fold] | Fold of change M.furfur vs Media [fold] | Fold of change Coculture vs DB05646 (DB05646-M. furfur co-culture) [fold] | Fold of change Coculture vs M.furfur (DB05646-M. furfur co-culture) | Fold of change Coculture vs Media (DB05646-M. furfur co-culture) [fold] | Fold of change DB05646 vs Media [1] [fold] | Fold of change M.furfur vs Media (M. furfur single culture) [fold]
19 | CC(=O)NCC[C@H](N)C(=O)O [(2S)-4-Acetamido-2-aminobutanoic acid] | – | – | – | – | – | 1.1 | 4.0 fold | 157.1 | 146.2 | 39.6
20 | O=C(O)C1CCC=N1 (centres unmarked) [1-pyrroline-5-carboxylic acid] | – | – | – | – | – | 0.7 | 16.9 fold | 128.9 | 191.4 | 7.6
21 | NC(=O)NCCCC[C@H](N)C(=O)O [homocitrulline] | – | significantly lower | – | – | – | – | – | – | – | –
22 | CCC(C)C1C=C(C(O)CC(O)C(O)C(=O)O)C(C(C)CC)C1 (centres unmarked) [4-Deoxy-5-C-(3,5-di-sec-butyl-1-cyclopenten-1-yl)pentonic acid] | – | – | – | – | – | 3.7 | 7.5 fold | 0.1 | 0.0 | 0.0
23 | COC(=O)CC(C)=O [Methyl acetoacetate] | – | – | – | – | – | 0.6 | 8.1 fold | 14.2 | 23.2 | 1.8
24 | OC1CC2CCC(C1)N2 (centres unmarked) [8-Azabicyclo[3.2.1]octan-3-ol] | 0.7 | 1.0 fold | 395.0 | 551.2 | 399.0 | – | – | – | – | –
25 | CC(=O)N[C@@H](CCCN)C(=O)O [N-Acetylornithine] | – | – | – | – | – | 1.1 | 4.7 fold | 23.7 | 21.0 | 5.0
26 | CSCC[C@H](NC(C)=O)C(=O)O [N-Acetylmethionine] | – | – | – | – | – | 0.9 | 2.8 fold | 68.4 | 78.1 | 24.1
27 | O=S(=O)(O)CCCN1CCOCC1 [4-Morpholinepropanesulfonic acid] | – | – | – | – | – | 6713.0 | 0.9 fold | 9151.4 | 1.4 | 10458.3
28 | Nc1cc[nH]c(=O)n1 [Cytosine] | – | – | – | – | – | 0.3 | 5.5 fold | 0.9 | 2.7 | 0.2
29 | CC(=O)N[C@@H](Cc1c[nH]c2ccccc12)C(=O)O [N-Acetyltryptophan] | – | – | – | – | – | 1.1 | 12.4 fold | 0.2 | 0.2 | 0.0
30 | CC(=O)N[C@@H](CCCNC(=N)N)C(=O)O [Acetylarginine] | – | – | – | – | – | 0.8 | 2.2 fold | 13.6 | 17.5 | 6.2
31 | CN1C2CCC1[C@@H](C(=O)O)[C@@H](O)C2 (stereo partly drawn) [(2R,3S)-3-Hydroxy-8-methyl-8-azabicyclo[3.2.1]octane-2-carboxylic acid] | 0.2 | 53.1 fold | 45.7 | 216.8 | 0.9 | – | – | – | – | –
32 | CCOC(C)OC(C)C(=O)O (centres unmarked) [2-(1-Ethoxyethoxy)propanoic acid] | – | – | – | – | – | 0.9 | 22.9 fold | 416.4 | 462.0 | 18.2
33 | CCN(CC)C(=O)c1cccnc1 [Nikethamide] | 0.4 | 238.5 fold | 210.5 | 579.2 | 0.9 | – | – | – | – | –
34 | Cc1[nH]c(=O)[nH]c(=O)c1CO [pentoxyl] | – | – | – | – | – | 0.5 | 200.0 fold | 204.8 | 444.9 | 1.0
35 | CC(C)C[C@H](NC(=O)[C@@H](N)CO)C(=O)O [Ser-Leu] (H-Ser-Leu-OH) | – | – | – | – | – | 0.4 | 3.7 fold | 6.9 | 17.6 | 1.9
